Anti-infective test results gathered from many reports (values: NIAID ChemDB through PubChem).

Common to all: growth or infection tests; agent: Toxoplasma gondii; measure: EC50

Blank or dashed fields: not listed here. Conditions beyond the fields shown may differ between rows. ECn: concentration that inhibits the pathogen or its effect by n%.

structure	strain	read by	cell line	result
CC(=O)O/N=C1/C(c2c(O)[nH]c3ccccc23)=Nc2ccccc21	ATCC 50839	-	HFF	0.07 µg/mL
C[C@@H]1CC[C@H]2[C@@H](C)C(=O)O[C@@H]3OC4(C)CC[C@@H]1[C@]32OO4	-	-	HFF	2.3 µg/mL
CCOC(=O)C1C(c2ccc(OC)cc2)CC(c2ccc(Cl)cc2)=CC12NCCN2	RH	-	HFF	0.0097 µM
CO[C@H]1O[C@@H]2O[C@@]3(C)CC[C@H]4[C@H](C)CC[C@@H]([C@H]1C)[C@@]24OO3	-	-	HFF	0.2 µg/mL
CC1=C(c2nc3ccccc3s2)O[C@@H]2O[C@]3(C)CC[C@H]4[C@H](C)CC[C@@H]1[C@@]24OO3	-	β-galactosidase	HFF	1 µM
CCCCCCCc1c(C)[nH]c2cc(OC)ccc2c1=O	2F	absorbance	-	0.000003 µM
CCOC(=O)C1C(c2ccc(C)cc2)CC(c2ccc(Cl)cc2)=CC12NCCN2	RH	-	HFF	0.0097 µM
O=C1C(c2c(O)[nH]c3ccc([N+](=O)[O-])cc23)=Nc2ccccc21	ATCC 50839	-	HFF	>320 µg/mL
O=C1c2ccccc2-c2c3c(cc4ccnc1c24)OCO3	RH (type I)	ELISA	-	0.07 µM
O=C1C(c2c(O)[nH]c3cc(Cl)ccc23)=Nc2ccccc21	ATCC 50839	-	HFF	>320 µg/mL
CC[C@H]1OC(=O)[C@H](C)C(=O)[C@H](C)[C@@H](O[C@@H]2O[C@H](C)C[C@H](N(C)C)[C@H]2O)[C@](C)(OC)C[C@@H](C)C(=O)[C@H](C)[C@H]2N(CCCCn3cnc(-c4cccnc4)c3)C(=O)O[C@]12C	RH	-	HFF	≤0.05 µg/mL
CCOC(=O)C1C(c2ccc(Cl)cc2)CC(c2ccc(OC)cc2)=CC12NCCN2	RH	-	HFF	0.0097 µM
CC(C)=CCCc1ccc2c(c1)C(=O)C=C(N1CCCC1)C2=O	RH (type I)	ELISA	-	173 µM
O=Nc1c(-c2c(O)[nH]c3ccc(F)cc23)[nH]c2ccccc12	ATCC 50839	-	HFF	0.2 µg/mL
C=C(C)CN(CC)c1c([N+](=O)[O-])cc(C(F)(F)F)cc1[N+](=O)[O-]	RH	-	-	0.1 µM
CCOC(=O)C1C(c2ccc(F)cc2)CC(c2ccccc2)=CC12NCCN2	RH	-	HFF	0.0097 µM
O=C1CCCN2C(CC1)C[C@@]13CN4CCCC/C=C/CC[C@@](O)(C=C(c5nccc6c5[nH]c5c(O)cccc56)[C@H]1CC4)[C@@H]23	-	-	HFF	>10 µM
CO[C@@H]1[C@@H](O[C@@H]2O[C@H](C)[C@@H](O[C@H]3C[C@@](C)(O)[C@@H](O)[C@H](C)O3)[C@H](N(C)C)[C@H]2O)[C@@H](CC=O)C[C@@H](C)[C@@H](O[C@H]2CC[C@H](N(C)C)[C@H](C)O2)/C=C/C=C/C[C@@H](C)OC(=O)C[C@H]1O	-	-	-	<3 µg/mL
CC1=C(C(=O)NCc2cc(Br)cc(Br)c2)OC2OC3(C)CC[C@H]4[C@H](C)CC[C@@H]1[C@@]24OO3	2F	β-galactosidase	HFF	0.36 µM
C[C@H]1[C@@H](CCCC(=O)c2ccccc2)O[C@@H]2OC3(C)CC[C@H]4[C@H](C)CC[C@@H]1[C@@]24OO3	-	-	HFF	0.6 µg/mL
CC1=C(C(=O)NCc2ccc(C)cc2)OC2OC3(C)CC[C@H]4[C@H](C)CC[C@@H]1[C@@]24OO3	2F	β-galactosidase	HFF	0.47 µM
Oc1[nH]c2ccccc2c1/C=N/N=C/c1ccco1	-	MTS	-	19.7 µM
Nc1ccc(S(=O)(=O)Nc2ncccn2)cc1	RH (type I)	ELISA	-	39.63 µM
CCC(=O)CCCCC[C@@H]1NC(=O)[C@H]2C[C@H](C)CN2C(=O)C(Cc2ccccc2)NC(=O)[C@@](C)(CC)NC1=O	RH	-	HFF	0.0853 µM
O[C@]12C=C(c3nccc4c3[nH]c3ccccc34)[C@@H]3CCN(CCCC/C=C/CC1)C[C@@]31C[C@@H]3/C=C\CCCCN3C12	-	-	HFF	<0.1 µM
CCNC(=O)C1=C(C)[C@@H]2CC[C@@H](C)[C@@H]3CC[C@]4(C)OO[C@@]23[C@H](O1)O4	-	β-galactosidase	HFF	4.4 µM
CCCCCCCN(CC1=C(O)c2ccccc2C(=O)C1=O)Cc1ccccc1	ATO	-	-	1.1 µM
COc1cc(C(C)C#Cc2c(C)nc(N)nc2N)cc(OC)c1OC	-	-	-	0.001 µM
CC1=C(C(=O)NCc2ccc(F)c(F)c2)OC2OC3(C)CC[C@H]4[C@H](C)CC[C@@H]1[C@@]24OO3	2F	β-galactosidase	HFF	0.34 µM

A second listing of 3 rows from above:

structure | strain | read by | cell line | result
O=Nc1c(-c2c(O)[nH]c3ccc(F)cc23)[nH]c2ccccc12 | ATCC 50839 | - | HFF | 0.2 µg/mL
CCOC(=O)C1C(c2ccc(F)cc2)CC(c2ccccc2)=CC12NCCN2 | RH | - | HFF | 0.0097 µM
CC(C)=CCCc1ccc2c(c1)C(=O)C=C(N1CCCC1)C2=O | RH (type I) | ELISA | - | 173 µM